The text below walks through data of US10988703B2, “Metal working fluid” (Italmatch SC, LLC, priority 2019, dated 2021).

A short description of the series: IP 287 test method for rust prevention characteristics of water mix metal working fluids. The settings on record: test amine solutions in 200 ppm water, 2 hours contact with cast iron chips.
Turning to `CCCC(N)CN` (stereo not shown) [1,2-diaminopentane], the “minimum concentration needed to produce a completely stain free piece of filter paper” value stood at 0.5%. `NCC1CCCC(CN)C1` (stereo not shown) [1,3-bis(aminomethyl)cyclohexane]: the “minimum concentration needed to produce a completely stain free piece of filter paper” value was 0.5%. In the case of `CCCCC(O)C(N)CC` (stereo not shown) [3-amino-4-octanol] it was 1.0%; in that of `NCCO` [monoethanolamine], 0.5%.
